PubChem BioAssay AID1259414, Drosophila RNAi Screening Center | 2018

- Purpose: 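Host factors increasing or decreasing Wolbachia levels in cultured fly cells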 (primary screen)
- System: Drosophila JW18 cells infected with Wolbachia
- Reagent: long dsRNA against Drosophila genes, 0.25 µg dsRNA per well of a 384-well plate
- Duration: 5 days
- Conditions: cells persistently infected with Wolbachia before knock-down; no added drug
- Measured: 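Imaged fluorescence in situ signal for Wolbachia 23S rRNA per DAPI-counted host cell, given as a robust z-score within each plate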
- Direction: Wolbachia per cell robust z: higher = more Wolbachia per host cell than the plate typical
- Call rule: 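Active if absolute robust z reaches 1.5 in two or more of three replicates, leaving out multi- or no-target dsRNAs, genes unexpressed in JW18 and A1 wells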
The screen tested about 24,000 reagents; shown is an unselected part of those with a known target gene and a result. Over the whole deposit, about 1,210 (5%) were called active. 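Inactive calls also include excluded dsRNAs with several or no targets, genes unexpressed in JW18, and well A1, regardless of score.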 Reagents against one gene are numbered here. Reagent sequences are not shown.

predicted target	dsRNA no.	Wolbachia per cell robust z, rep 1	Wolbachia per cell robust z, rep 2	Wolbachia per cell robust z, rep 3	outcome
CG10357	1	-0.473	0.618	-4.55	inactive
CG4960	1	-0.676	0.947	-0.0917	inactive
CG4960	2	-1.74	-1	0.113	inactive
CG7791	1	-3.68	1.06	-0.462	inactive
CG6443	1	0.0648	-0.0658	0.556	inactive
CG6443	2	-2.35	-1.12	1.32	inactive
Adi1	1	0.0958	0.867	-0.297	inactive
Adi1	2	0.613	0.568	1.23	inactive
Agps	1	0.25	-3.94	-1.18	inactive
Agps	2	0.864	0.0393	-2.52	inactive
CG12698	1	0.0965	1.45	0.786	inactive
CG12698	2	0.593	-0.693	-0.256	inactive
RtGEF	1	-2.34	-0.577	-1.06	inactive
RtGEF	2	0.608	0.327	0.692	inactive
CG9281	1	-3.99	0.0791	-2.45	active
CG9281	2	-1.76	-0.00828	1.95	inactive
Jhbp3	1	1.24	-2.15	1.17	inactive
CG13227	1	1.18	0.568	0.345	inactive
CG13227	2	-5.37	1.02	0.24	inactive
CG31862	1	-0.82	-1.16	-0.0531	inactive
CG3402	1	-0.184	0.509	0.89	inactive
Nup35	1	-5.34	0.0657	1.56	inactive
CG7201	1	-0.602	0.686	1.02	inactive
CAH14	1	0.111	-2.17	-0.695	inactive
CAH14	2	0.679	-1.84	-0.607	inactive
CG14882	1	-2.11	0.0209	-0.265	inactive
CG14882	2	-1.04	-2.84	-0.399	inactive
CG6454	1	-0.238	-1.04	-0.00697	inactive
CG6454	2	0.336	-1.26	-7.12	inactive
CG10663	1	-0.168	0.319	0.921	inactive
Ccs	1	-0.0711	0.338	0.369	inactive
CG4995	1	-0.587	0.766	0.0288	inactive
CG4995	2	0.581	0.648	0.669	inactive
CG43110	1	-1.54	-0.342	-0.368	inactive
CG30183	1	-1.03	0.575	0.914	inactive
CG30183	2	-0.739	-0.221	-1.9	inactive
Mob4	1	2.21	1.39	1.97	active
Mob4	2	0.967	1.22	1.54	inactive
PIG-G	1	0.261	-4.1	-1.4	inactive
Gr39a	1	-0.0653	-0.0364	-0.989	inactive
Gr39a	2	-0.627	-0.00115	-0.499	inactive
Gr39a	3	0.225	-0.773	-4.15	inactive
CG34109	1	0.241	-0.195	0.597	inactive
CG34109	2	1.46	0.25	-1.32	inactive
CG34109	3	-2.11	0.0579	0.348	inactive
CG34109	4	0.15	0.66	2.55	inactive
CG34109	5	1.07	0.562	0.992	inactive

Not a retest: 3 of the entries above.
predicted target	dsRNA no.	Wolbachia per cell robust z, rep 1	Wolbachia per cell robust z, rep 2	Wolbachia per cell robust z, rep 3	outcome
CG4995	2	0.581	0.648	0.669	inactive
CG43110	1	-1.54	-0.342	-0.368	inactive
CG30183	1	-1.03	0.575	0.914	inactive
